Primary screen of a compound library

From ChEMBL document CHEMBL3988442, “University of Dundee, Small-Polar-MMV Screening Library” (2021).

Mtb glucose medium: 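Phenotypic screen: M. tuberculosis growth, glucose 7H9 medium, 3 days; the read-out is not stated. Tested at 500 µM. The record gives no direction; compounds that gave an IC50 in retests scored well above the rest, so higher reads as more growth inhibition. Size under these conditions: about 18,000 compounds, about 1,400 of them at 50% or above in at least one test.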
Mtb cholesterol medium: 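Phenotypic screen: M. tuberculosis growth, cholesterol and DPPC medium, 4 days; the read-out is not stated. Tested at 500 µM. Higher reads as more growth inhibition (inferred: compounds with an IC50 in retests scored well above the rest). About 18,000 compounds were tested under these conditions; 5% (about 900) showed 50% or more at least once.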

Each number is a percent effect as filed. The controls that fix the scale are not given in the record; negative values are as filed. Many other results are left out here, so strong results are more common than in the screen. A dash means the value is not listed here; it may have been measured.

compound | Mtb glucose medium | Mtb cholesterol medium
CNC(=O)Cn1cc(-c2cccc3cnccc23)cn1 | 12.64 | -
CCS(=O)(=O)N1CCC(C(C)NC)CC1 (stereo not shown) | -2.329 | -
CN(C)S(=O)(=O)c1cccc(Cn2cccn2)c1 | 31.41 | -
CN1CCN(c2ccncc2N)CC1 | -7.556 | -
COCC1(C(=O)N2CCC[C@@H]2C(N)=O)CCC1 | 9.494 | -
Cc1ncsc1C(=O)NC1CCCCNC1=O (stereo not shown) | 63.3 | -11.59
Cc1n[nH]c(SCC(=O)N2CCc3ccccc32)n1 | 9.62 | -
CCCNC(=O)c1ccc(CN2CCOCC2)cc1 | 29.37 | -
CC(=O)NCCNS(=O)(=O)c1cc(C)ccc1C | - | 21.01
CC(C)NC(=O)NCCN1CCNCC1 | 11.25 | -
Brc1cncc(NCCOCC2CCCO2)c1 (stereo not shown) | 48.68 | -
CCCc1ccc(C(=O)N2CCC(N)CC2)cc1 | 22.14 | -
CC(N)c1nnc(-c2ccccc2F)s1 (stereo not shown) | 18.76 | -
CC1CCCc2nccn21 (stereo not shown) | -0.7317 | -
CCC1CN(C(=O)c2ccc(S(C)(=O)=O)cc2)CCO1 (stereo not shown) | - | 2.687
CCC(CO)NC(=O)C1(c2ccc(F)cc2F)CCC1 (stereo not shown) | 54.95 | 52.52
CCN(C)C(=O)Nc1ccc(C(=O)OC)c(F)c1 | 50.7 | 67.03
COc1cccc(OC)c1CN | 34.29 | -
CSc1ccc(NC(=O)NCC2(O)CCNC2)cc1 (stereo not shown) | 41.72 | -
Cc1ccc(C2CN(CCOC(=O)N(C)C)CCO2)o1 (stereo not shown) | 0.6513 | -
CC(C)(C)NC(=O)c1ccc(C(=O)NCC2CC2)cc1 | -1.858 | -
CCN1CCCN(C(=O)c2ccc(C)c(OC)c2)CC1 | - | 10.06
CS(=O)(=O)N1CCN(C(=O)c2ccccc2)C1 | 13.54 | -
Cc1cccc(NC(=O)C2CCNCC2)n1 | - | -4.093
Cn1nnnc1NCc1cccc(Cl)c1Cl | 58.45 | 50.24
Cc1cc(C(=O)N(C)CC(C)(CO)CO)cc(C)c1F | 28.96 | -
CC(C)(C)OC(=O)N[C@H]1CCNC1 | - | 17.49
CC(O)CNc1ncccc1I (stereo not shown) | 21.13 | -
CCOc1ccc(S(=O)(=O)N[C@@H](C)c2cncs2)cn1 | 32.13 | -
CCCNC(=O)CC(NCCC)C(N)=O (stereo not shown) | 9.658 | -
COc1cccc(-c2ccc(CNS(N)(=O)=O)cc2)c1 | - | 93.15
CC(C)(C)OC(=O)N[C@H]1CS(=O)(=O)[C@@H]2CNC[C@H]12 | - | 5.562
NCCCc1ccc(O)cc1 | 14.83 | -
Fc1ccc(CSc2nnnn2CC2CCCO2)cc1 (stereo not shown) | 89.4 | 84.57
CC(C(=O)NC1CCCC1)N1CCNCC1 (stereo not shown) | -0.8422 | -
COc1ccc(OCCSCC(=O)NCCC#N)cc1 | 68.26 | 86.24
CCCn1nc(C(=O)NCc2csc(Br)c2)ccc1=O | 81.3 | 89.53
COc1cccc(CN2CCC(N(C)C(C)=O)CC2)c1 | 4.534 | 8.731
CC(CO)(CO)NCc1cc2cc(F)ccc2o1 | - | 9.821
FC(F)(F)c1ccc(OC2CCNCC2)nc1 | 71.06 | 55.56
OC1(CN2CCCCC2)CCN(Cc2ncc[nH]2)C1 (stereo not shown) | 24.51 | -
CCN1CCN(c2ccccc2O)CC1 | 60.37 | 67.63
O=C(c1cnn(-c2ccccc2)c1)N1CCCCC1 | -15.41 | -12.49
Cc1noc(C)c1C(=O)NC1CCCN(S(C)(=O)=O)C1 (stereo not shown) | - | -1.271
CC(C)NC(=O)c1ccc(CN2CCCC2)cc1 | 13.53 | -
CN(C)C(=O)CCOC(=O)c1cccc(Cl)c1 | 70 | 53.06
CC(C)C(NC(=O)c1ccco1)C(=O)Nc1nccs1 (stereo not shown) | 35.48 | -
O=C(NC1=NCCS1)c1sccc1C1CC1 | 64.17 | 70.22
O=C(Nc1ccon1)c1n[nH]cc1I | 12.71 | -
CCCNC(=O)Cn1cc(NC(=O)C(C)(C)C)cn1 | - | -11.16
COCCN1CCCC1C(=O)Nc1ccccc1 (stereo not shown) | - | 9.908
COCCNC1CCCc2cccnc21 (stereo not shown) | 3.563 | -
O=C1CCNC(=O)CC1 | -13.04 | -
CCCNCCNC(=O)C(C)c1ccc(OC)cc1 (stereo not shown) | 17.36 | -
COCCNCC(=O)Nc1cccc(CSC)c1 | 51.91 | -
CN1CCN(C(=O)CC#N)CC1 | -5.7 | -
N[C@@H]1C[C@H]1c1cc(F)ccc1F | 37 | -
N#CCCN1CCCN(Cc2ccc(C#N)cc2)CC1 | 15.86 | -
CN(C)CCOc1ccc(C#N)cc1 | 12.22 | 14.54
c1cc(C2CNCCN2)ccn1 (stereo not shown) | -13.27 | -
O=C1NCCNC1c1ccccc1 (stereo not shown) | 47.05 | -
O=C(c1coc(CN2CCOCC2)c1)N1CCSCC1 | - | 9.385
CCCc1noc(CNc2ccccc2C(N)=O)n1 | -5.187 | 8.138
CCn1ccc(NC(=O)C2CCCC2)n1 | - | 18.88
CCNC(=O)c1cc(-c2ccc(F)cc2)n[nH]1 | 69.42 | 69.54
CN(C(=O)Cc1ccncc1)C1CCOC(C)(C)C1 (stereo not shown) | - | 6.184
CCN(CCO)Cc1cc(=O)n2ccsc2n1 | -10.89 | -16.34
CCNC(=O)Cc1n[nH]c(=O)c2ccccc12 | - | -15.24
COCCN1CCCN(C(=O)c2cc(Cl)c[nH]2)CC1 | 63.83 | 63.51
COc1ccc(C)cc1CC(=O)N1CCN(C)CC1 | 4.566 | -
CC(C)C(C(=O)NCCc1nnc[nH]1)c1ccccc1 (stereo not shown) | 15.36 | -
CC(C)(C)OC(=O)N1CC(N)CC(F)(F)C1 (stereo not shown) | -6.027 | -
Cc1cc(CC(=O)NCCNc2cccnc2)on1 | 5.367 | 3.104
Cc1[nH]c2ccc(C(N)=O)cc2c1C | 77.24 | 90.08
NCCNCc1ccccn1 | 0.6646 | -
CN(Cc1ccco1)C(=O)CN1CCc2sccc2C1 | 62.98 | 69.22
CC(OCc1ccccc1)C(=O)NCc1c[nH]nn1 (stereo not shown) | 12.78 | -
Cc1cccc(CCO)c1 | - | -9.599

5 of the entries, repeated:

{"compound": "COc1ccc(C)cc1CC(=O)N1CCN(C)CC1", "Mtb glucose medium": 4.566}
{"compound": "NCCNCc1ccccn1", "Mtb glucose medium": 0.6646}
{"compound": "CCCNC(=O)CC(NCCC)C(N)=O", "stereo": "stereo not shown", "Mtb glucose medium": 9.658}
{"compound": "CC(C)NC(=O)c1ccc(CN2CCCC2)cc1", "Mtb glucose medium": 13.53}
{"compound": "CN(C(=O)Cc1ccncc1)C1CCOC(C)(C)C1", "stereo": "stereo not shown", "Mtb cholesterol medium": 6.184}